## Sequence variants of PSTVd loop 15 after infection

Source: Wu et al. 2024 (doi:10.1371/journal.ppat.1012142), supplementary data.

PSTVd intermediate strain, loop 15: wild type GGAAACCGCUACUAC, pool pattern GGAAACCGNNNNNNC; upper and lower strand joined, each 5' to 3', the first 7 letters being the upper strand, closing pairs included.

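Three N. benthamiana plants were inoculated with the whole mutant pool. Samples came from the inoculated region at 5 days, the leaf margin at 10 and upper systemic leaves at 12.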

Values are reads per thousand in the sample; higher means more abundant, 0 means not found. Each site shows the three plants. "Pool" is the share in the plasmid pool used as inoculum, on the same scale. The inoculated region was read from the minus strand, the other sites from the plus strand. With 43,870-66,106 reads a sample, very low values are single reads.

| sequence | pool | inoculated region | leaf margin | systemic leaves |
|---|---|---|---|---|
| GGAAACCGCCACCGC | 0.240 | 0.0164 / 0.145 / 0.133 | 0.0162 / 0 / 0 | 0.0161 / 0 / 0 |
| GGAAACCGCCACCUC | 0.208 | 0.344 / 0.193 / 0.381 | 0.0808 / 0.0668 / 0.140 | 0 / 0 / 0 |
| GGAAACCGCCACGAC | 0.208 | 0.0491 / 0.0643 / 0.114 | 0 / 0.0445 / 0.0200 | 0.0161 / 0 / 0 |
| GGAAACCGCCACGCC | 0.256 | 0.0983 / 0.0803 / 0.0762 | 0 / 0.0445 / 0.0200 | 0 / 0 / 0 |
| GGAAACCGCCACGGC | 0.176 | 0.131 / 0.0482 / 0.114 | 0 / 0.0223 / 0 | 0 / 0 / 0 |
| GGAAACCGCCACGUC | 0.208 | 0.0491 / 0.0803 / 0.0381 | 0.0162 / 0.0445 / 0.0601 | 0 / 0 / 0 |
| GGAAACCGCCACUAC | 0.736 | 0.606 / 0.450 / 0.685 | 0.437 / 0.579 / 0.581 | 0.370 / 0.439 / 0.0228 |
| GGAAACCGCCACUCC | 0.336 | 0.295 / 0.193 / 0.400 | 0.0323 / 0 / 0.120 | 0.0322 / 0 / 0 |
| GGAAACCGCCACUGC | 0.304 | 0.295 / 0.321 / 0.476 | 0.162 / 0.134 / 0.160 | 0.0161 / 0.0151 / 0.114 |
| GGAAACCGCCACUUC | 0.224 | 0.262 / 0.289 / 0.343 | 0.0808 / 0.0445 / 0.180 | 0 / 0.0605 / 0.114 |
| GGAAACCGCCAGAAC | 0.240 | 0.311 / 0.402 / 0.248 | 0.0970 / 0.0223 / 0.100 | 0.0161 / 0.0756 / 0.0912 |
| GGAAACCGCCAGACC | 0.128 | 0.131 / 0.112 / 0.114 | 0 / 0 / 0.0200 | 0 / 0 / 0 |
| GGAAACCGCCAGAGC | 0.272 | 0.246 / 0.209 / 0.286 | 0.0647 / 0.0668 / 0.0801 | 0.0644 / 0 / 0 |
| GGAAACCGCCAGAUC | 0.272 | 0.475 / 0.305 / 0.286 | 0.0647 / 0.0223 / 0.0801 | 0.0161 / 0.121 / 0.0684 |
| GGAAACCGCCAGCAC | 0.144 | 0.409 / 0.241 / 0.305 | 0.0808 / 0.0445 / 0.140 | 0 / 0.121 / 0.114 |
| GGAAACCGCCAGCCC | 0.208 | 0.0819 / 0.145 / 0.0762 | 0.0323 / 0 / 0 | 0 / 0 / 0 |
| GGAAACCGCCAGCGC | 0.256 | 0.197 / 0.0482 / 0.0762 | 0.0323 / 0 / 0 | 0 / 0 / 0 |
| GGAAACCGCCAGCUC | 0.128 | 0.360 / 0.337 / 0.133 | 0.210 / 0.0445 / 0.0401 | 0 / 0 / 0 |
| GGAAACCGCCAGGAC | 0.176 | 0.377 / 0.209 / 0.324 | 0.259 / 0.111 / 0.120 | 0.0161 / 0.0454 / 0.0456 |
| GGAAACCGCCAGGCC | 0.320 | 0.0983 / 0.112 / 0.0762 | 0.0323 / 0 / 0.0200 | 0 / 0 / 0 |
| GGAAACCGCCAGGGC | 0.192 | 0.115 / 0.0643 / 0.0571 | 0 / 0.0223 / 0 | 0 / 0 / 0 |
| GGAAACCGCCAGGUC | 0.240 | 0.557 / 0.562 / 0.476 | 0.113 / 0.0668 / 0.120 | 0.0805 / 0.0454 / 0.114 |
| GGAAACCGCCAGUAC | 0.192 | 0.295 / 0.386 / 0.400 | 0.113 / 0.0668 / 0.120 | 0.0322 / 0 / 0 |
| GGAAACCGCCAGUCC | 0.176 | 0.360 / 0.321 / 0.533 | 0.0808 / 0.134 / 0.200 | 0 / 0.0605 / 0.0684 |
| GGAAACCGCCAGUGC | 0.272 | 0.246 / 0.450 / 0.400 | 0.113 / 0.156 / 0.120 | 0.129 / 0.0303 / 0.114 |
| GGAAACCGCCAGUUC | 0.288 | 0.377 / 0.514 / 0.362 | 0.113 / 0.134 / 0.240 | 0.0161 / 0.0605 / 0.114 |
| GGAAACCGCCAUAAC | 0.224 | 0.393 / 0.353 / 0.438 | 0.0808 / 0.0445 / 0.200 | 0.0322 / 0.0151 / 0.0912 |
| GGAAACCGCCAUACC | 0.128 | 0.0819 / 0.129 / 0.114 | 0 / 0.0223 / 0.0401 | 0.0161 / 0 / 0.0228 |
| GGAAACCGCCAUAGC | 0.288 | 0.115 / 0.0964 / 0.114 | 0 / 0 / 0 | 0.0161 / 0 / 0 |
| GGAAACCGCCAUAUC | 0.144 | 0.213 / 0.209 / 0.419 | 0.146 / 0.0668 / 0.180 | 0.0644 / 0 / 0 |
| GGAAACCGCCAUCAC | 0.304 | 0.311 / 0.434 / 0.324 | 0.210 / 0.0891 / 0.0801 | 0.0805 / 0.0605 / 0.0684 |
| GGAAACCGCCAUCCC | 0.240 | 0.0983 / 0.0643 / 0.0952 | 0 / 0 / 0 | 0.0161 / 0 / 0 |
| GGAAACCGCCAUCGC | 0.304 | 0.0655 / 0.112 / 0.0190 | 0 / 0 / 0 | 0 / 0 / 0 |
| GGAAACCGCCAUCUC | 0.208 | 0.0491 / 0.0643 / 0.114 | 0 / 0 / 0.0401 | 0 / 0 / 0 |
| GGAAACCGCCAUGAC | 0.176 | 0.115 / 0.112 / 0.0952 | 0 / 0.0223 / 0 | 0 / 0 / 0 |
| GGAAACCGCCAUGCC | 0.208 | 0.0983 / 0.0482 / 0.114 | 0.0162 / 0 / 0 | 0 / 0 / 0 |
| GGAAACCGCCAUGGC | 0.176 | 0.213 / 0.353 / 0.190 | 0 / 0.0223 / 0.0801 | 0.0161 / 0 / 0 |
| GGAAACCGCCAUGUC | 0.272 | 0.164 / 0.0964 / 0.0762 | 0 / 0.0223 / 0.0200 | 0 / 0 / 0 |
| GGAAACCGCCAUUAC | 0.336 | 0.442 / 0.434 / 0.476 | 0.0970 / 0.0891 / 0.100 | 0.0483 / 0.0454 / 0.0228 |
| GGAAACCGCCAUUCC | 0.160 | 0.278 / 0.257 / 0.400 | 0.129 / 0.111 / 0.100 | 0.0483 / 0.0151 / 0.114 |
| GGAAACCGCCAUUGC | 0.0960 | 0.229 / 0.257 / 0.438 | 0.178 / 0.0445 / 0.0801 | 0.0644 / 0.0605 / 0.0912 |
| GGAAACCGCCAUUUC | 0.192 | 0.311 / 0.386 / 0.419 | 0.0970 / 0.0668 / 0.220 | 0.0483 / 0.0303 / 0.160 |
| GGAAACCGCCCAAAC | 0.384 | 0.295 / 0.434 / 0.343 | 0.113 / 0.0668 / 0.140 | 0.0483 / 0 / 0 |
| GGAAACCGCCCAACC | 0.176 | 0.0655 / 0.112 / 0.0952 | 0 / 0.0223 / 0.0401 | 0.0161 / 0 / 0 |
| GGAAACCGCCCAAGC | 0.128 | 0.131 / 0.0964 / 0.133 | 0 / 0 / 0.0200 | 0 / 0 / 0 |
| GGAAACCGCCCAAUC | 0.240 | 0.0655 / 0.112 / 0.209 | 0.0162 / 0 / 0.0200 | 0 / 0 / 0 |
| GGAAACCGCCCACAC | 0.208 | 0.164 / 0.273 / 0.324 | 0.0808 / 0.0891 / 0.140 | 0.0322 / 0 / 0 |
| GGAAACCGCCCACCC | 0.288 | 0.131 / 0.0482 / 0.133 | 0.0162 / 0 / 0.0200 | 0 / 0 / 0 |
| GGAAACCGCCCACGC | 0.192 | 0.0819 / 0.0964 / 0.0952 | 0 / 0 / 0.0200 | 0 / 0 / 0 |
| GGAAACCGCCCACUC | 0.224 | 0.278 / 0.289 / 0.267 | 0.146 / 0.111 / 0.100 | 0.0644 / 0 / 0 |
| GGAAACCGCCCAGAC | 0.272 | 0.0655 / 0.0643 / 0.114 | 0 / 0 / 0.0200 | 0 / 0 / 0 |
| GGAAACCGCCCAGCC | 0.224 | 0.147 / 0.145 / 0.0762 | 0.0162 / 0.0223 / 0.0200 | 0 / 0 / 0 |
| GGAAACCGCCCAGGC | 0.208 | 0.197 / 0.193 / 0.171 | 0.0162 / 0.0223 / 0.0401 | 0 / 0 / 0 |
| GGAAACCGCCCAGUC | 0.224 | 0.0655 / 0.0964 / 0.0952 | 0 / 0.0223 / 0.0200 | 0 / 0 / 0 |
| GGAAACCGCCCAUAC | 0.0800 | 0.262 / 0.369 / 0.438 | 0.0970 / 0.0445 / 0.120 | 0.0322 / 0.0605 / 0.160 |
| GGAAACCGCCCAUCC | 0.144 | 0.0491 / 0.129 / 0.0952 | 0.0162 / 0 / 0.0200 | 0 / 0 / 0 |
| GGAAACCGCCCAUGC | 0.240 | 0.311 / 0.386 / 0.362 | 0.113 / 0.0668 / 0.260 | 0.0483 / 0 / 0 |
| GGAAACCGCCCAUUC | 0.224 | 0.459 / 0.337 / 0.267 | 0.0970 / 0.0445 / 0.140 | 0.0161 / 0.0605 / 0.0684 |
| GGAAACCGCCCCAAC | 0.176 | 0.147 / 0.0643 / 0.114 | 0 / 0 / 0.0200 | 0 / 0 / 0.0228 |
| GGAAACCGCCCCACC | 0.240 | 0.147 / 0.0643 / 0.133 | 0 / 0.0445 / 0 | 0 / 0 / 0 |
| GGAAACCGCCCCAGC | 0.144 | 0.115 / 0.112 / 0.114 | 0.0647 / 0.0223 / 0.0200 | 0 / 0 / 0 |
| GGAAACCGCCCCAUC | 0.208 | 0.180 / 0.0482 / 0.0762 | 0 / 0 / 0.0601 | 0 / 0 / 0 |
| GGAAACCGCCCCCAC | 0.288 | 0.0983 / 0.0803 / 0.0762 | 0 / 0 / 0.0401 | 0.0161 / 0 / 0 |

Sequences that differ at fixed positions probably stem from PCR or sequencing errors, and defective variants can be carried along by functional ones. Wild type was 33.9 per thousand in the pool and the most common sequence in every sample (inoculated region 202, 200, 159; leaf margin 724, 746, 710; systemic leaves 856, 883, 880).